Anti-infective test results gathered from many reports (values: NIAID ChemDB through PubChem).

All rows: growth or infection tests; agent: Mycobacterium tuberculosis

Conditions beyond the fields shown may differ between rows. An empty or dashed field is not shown. MIC50, MIC90 and the like: level of inhibition, or share of isolates inhibited. MIC bound comes from a single tested concentration. Inhibition is in % at the dose shown (toxicity tests: loss of growth or viability). ECn: concentration that inhibits the pathogen or its effect by n%.

structure	strain or isolate	dose	cells	measure	method	conditions	result
O=C(O)c1cn(C2CC2F)c2c(Cl)c(N3CC4CCCNC4C3)c(F)cc2c1=O	71 (RFP-resistant)	-	-	MIC	-	-	0.1 µg/mL
Fc1ccc(-n2ncc(C(c3ccccc3)n3ccnc3)c2-c2ccccc2)c(F)c1	ATCC 35828 (pyrazinamide-resistant)	-	-	MIC50	-	-	≥100 µM
CCOCCCNCCNC[C@]1(C)CCC[C@]2(C)c3ccc(C(C)C)cc3CC[C@@H]12	-	-	-	MIC	-	-	25 µM
O=c1oc2ccccc2cc1-c1cs/c(=N/N=C/c2ccc(Cl)cc2)n1C1CCCCC1	H37Rv	-	-	MIC	-	-	>12.5 µg/mL
CC(NCCNCCc1ccccc1)c1cccc2ccccc12	-	-	-	MIC	-	-	50 µM
O=[n+]1c(Sc2ccccc2)c(CBr)n([O-])c2cc(C(F)(F)F)ccc21	H37Rv	6.25 µg/mL	-	inhibition	-	-	88%
CNC(=O)Nc1ccncc1	H37Rv	-	-	MIC bound	resazurin	-	>6.25 µg/mL
CCCCCCCCCCCNCCNC/C=C(\C)CCC=C(C)C	-	-	-	MIC	-	-	25 µM
O=C(/N=C/c1cccc([N+](=O)[O-])c1)NCCCN1c2ccccc2Sc2ccccc21	H37Rv	50 µg/mL	-	inhibition	agar	-	68%
CC1COc2c(N3CCN(C)CC3)c(F)cc3c(=O)c(C(=O)O)cn1c23	45 strains (drug-susceptible)	-	-	MIC50	-	-	1 µg/mL
COC(=O)c1cc(-c2ccc(C)cc2)c2c(=O)n(-c3ccccc3)[nH]c2n1	H37Rv	-	-	MIC bound	BACTEC	-	>12.5 µg/mL
CO[C@H]1/C=C/O[C@@]2(C)Oc3c(C)c(O)c4c(O)c(c(/C=N/N5CCN(C6CCCC6)CC5)c(O)c4c3C2=O)NC(=O)/C(C)=C\C=C\[C@H](C)[C@H](O)[C@@H](C)[C@@H](O)[C@@H](C)[C@H](O)[C@@H]1C	Erdman	-	-	MIC	-	-	0.06 µg/mL
CC(=O)NC[C@H]1CN(c2ccc(N3CCN(c4ccc([N+](=O)[O-])s4)CC3)c(F)c2)C(=O)O1	SGPGI	-	-	MIC	-	-	1 µg/mL
Cc1ccc(NCCN(C)CC(C)O)c2c(=O)c3ccc(Cl)cc3sc12	H37Rv	12.5 µg/mL	-	inhibition	BACTEC	-	20%
Cc1ccc(/C=N/C(=O)NCCCN2c3ccccc3Sc3ccccc32)cc1	H37Rv	25 µg/mL	-	inhibition	agar	-	20%
CCOc1c(N=Nc2cccc(Cl)c2)c(C)nn1C(=S)SC	H37Rv	-	-	MIC	BACTEC	-	64 µg/mL
CC(C)c1ccc2c(c1)CC[C@H]1[C@](C)(CNCCNCc3cccc4ccccc34)CCC[C@]21C	-	-	-	MIC	-	-	50 µM
CO[C@H]1/C=C/O[C@@]2(C)Oc3c(C)c(O)c4c(=O)c(c5oc6cc(N7CCN(CC(C)C)CC7)cc(=O)c6nc5c4c3=C2O)NC(=O)/C(C)=C\C=C\[C@H](C)[C@H](O)[C@@H](C)[C@@H](O)[C@@H](C)[C@H](OC(C)=O)[C@@H]1C	Kurata	10 µg/mL	-	inhibition	-	inside macrophages	90.8%
C/C=C1/C(=O)O[C@]23C=C[C@@H]4C(C(=O)OC)=CO[C@H](O[C@@H]12)[C@@H]43	MDR1 clinical isolate	-	-	MIC	MTT	-	1.3 µg/mL
CCCCC(CC)CN1CN(CC(CC)CCCC)CC(C)(NCCNC(C)CC(C)C)C1	-	-	-	MIC	-	-	25 µM
CC1COc2c(N3CCN(C)CC3)c(F)cc3c(=O)c(C(=O)O)cn1c23	ATCC 35837 (ethambutol-resistant)	-	-	MIC90	-	-	2.9 µM
Cc1c(F)c(N2CCNC(C)C2)cc2c1c(=O)c(C(=O)O)cn2C1CC1	82 strains	-	-	MIC50	-	-	1 µg/mL
C[C@]1(COc2ccc(N3CCC(Oc4ccc(OC(F)(F)F)cc4)CC3)cc2)Cn2cc([N+](=O)[O-])nc2O1	TU-26	-	-	MIC	-	-	0.012 µg/mL
CCn1c(-c2cc3ccccc3oc2=O)cs/c1=N\N=C\c1ccc(Cl)cc1	H37Rv	-	-	MIC	-	-	>12.5 µg/mL
Clc1ccc(-c2c(C(c3ccccc3)n3ccnc3)cnn2-c2ccc(Cl)cc2)cc1	ATCC 27294	-	-	MIC50	-	-	6.1 µM
Cc1c(Cl)[n+](=O)c2cc(F)c(F)cc2n1[O-]	H37Rv	-	-	MIC	-	-	1.56 µg/mL
CC1CCCCN1c1cncc(/C(N)=N/O)n1	Capreomycin-resistant	-	-	MIC	-	-	250 µg/mL
CCC1CN(c2c(F)cc3c(=O)c(C(=O)O)cn([C@@H]4C[C@@H]4F)c3c2OC)CCN1	44 (RFP-resistant)	-	-	MIC	-	-	0.25 µg/mL
Clc1ccccc1-c1c(C(c2ccccc2)n2ccnc2)cnn1-c1ccccc1	ATCC 27294	-	-	MIC50	-	-	56.3 µM
CO[C@H]1/C=C/O[C@@]2(C)Oc3c(C)c(O)c4c(O)c(c5c(c4c3C2=O)NC2(CCN(CC(C)C)CC2)N=5)=NC(=O)/C(C)=C\C=C\[C@H](C)[C@H](O)[C@@H](C)[C@@H](O)[C@@H](C)[C@H](OC(C)=O)[C@@H]1C	CSU23	-	-	MIC	-	-	≤0.125 µg/mL
CC(=O)NN1C(=O)Cc2ccccc2C1C(N)=O	H37Rv	-	-	MIC bound	BACTEC	-	>12.5 µg/mL
NNC(=O)c1ccncc1	CSU21	-	-	MIC	-	-	4 µg/mL
O=C(NCCCN1c2ccccc2Sc2ccccc21)N1C(=O)/C(=C\c2ccccc2Br)SC1c1ccccc1Br	H37Rv	25 µg/mL	-	inhibition	agar	-	29%
CCN=c1cc2n(-c3ccc(C(F)(F)F)cc3)c3ccccc3nc-2cc1Nc1ccc(C(F)(F)F)cc1	2219	-	-	MIC	-	multidrug-resistant	≤0.06 µg/mL
CO[C@H]1/C=C/O[C@@]2(C)Oc3c(C)c(O)c4c(O)c(c(/C=N/N5CCN(C)CC5)c(O)c4c3C2=O)NC(=O)/C(C)=C\C=C\[C@H](C)[C@H](O)[C@@H](C)[C@@H](O)[C@@H](C)[C@H](OC(C)=O)[C@@H]1C	ATCC 35837 (ethambutol-resistant)	-	-	MIC90	-	-	1 µM
O=C1CSC(c2ccccc2Cl)N1c1n[nH]c(=S)s1	H37Rv	-	-	MIC bound	BACTEC	-	>12.5 µg/mL
Clc1ccc(-c2c(C(c3ccccc3)n3ccnc3)cnn2-c2ccccc2)cc1	ATCC 35822 (isoniazid-resistant)	-	-	MIC90	-	-	≥100 µM
CC1COc2c(N3CCN(C)CC3)c(F)cc3c(=O)c(C(=O)O)cn1c23	H37Rv	-	-	MIC	-	-	0.75 µg/mL
CCCCC(CC)CN1CN(CC(CC)CCCC)CC(C)(NCCNCc2ccc(F)cc2)C1	-	-	-	MIC	-	-	50 µM
CC1CN(c2c(F)cc3c(=O)c(C(=O)O)cn(C4CC4)c3c2F)CC(C)N1	CSU20	-	-	MIC	-	-	0.25 µg/mL
CCCCCNCCNC[C@]1(C)CCC[C@]2(C)c3ccc(C(C)C)cc3CC[C@@H]12	-	-	-	MIC	-	-	50 µM
O=C1c2ccccc2C(=O)c2c1oc1cc(O)c(Cl)cc21	H37Rv	-	-	MIC	BACTEC	-	6.25 µg/mL
CO[C@H]1/C=C/O[C@@]2(C)Oc3c(C)c(O)c4c(=O)c(c5oc6cc(N7CCN(CC(C)C)CC7)cc(=O)c6nc5c4c3=C2O)NC(=O)/C(C)=C\C=C\[C@H](C)[C@H](O)[C@@H](C)[C@@H](O)[C@@H](C)[C@H](OC(C)=O)[C@@H]1C	2237 (rifampicin-susceptible)	-	-	MIC	-	-	0.0078 µg/mL
S=C(NCN1CCOCC1)c1cncc(-n2ccnc2)n1	Capreomycin-resistant	-	-	MIC	-	-	500 µg/mL
O=C(/N=C/c1ccc(O)cc1)NCCCN1c2ccccc2Sc2ccccc21	H37Rv	25 µg/mL	-	inhibition	agar	-	28%
Cc1cc(N2C(=O)CSC2=S)ccc1Cl	H37Rv	12.5 µg/mL	-	inhibition	BACTEC	-	16%
Clc1ccc(-n2ncc(C(c3ccccc3)n3ccnc3)c2-c2ccccc2)c(Cl)c1	ATCC 35822 (isoniazid-resistant)	-	-	MIC90	-	-	99.6 µM
Cc1ccc(S(=O)(=O)Oc2ccc3oc4c(CO)ccc(NCCN(C)C)c4c(=O)c3c2)cc1	PZA-R	-	-	MIC	-	-	>12.5 µg/mL
Cc1c(Cl)[n+](=O)c2ccc(Cl)cc2n1[O-]	H37Rv	-	-	MIC	-	-	6.25 µg/mL
NCC(=O)N/N=C/c1ccc([N+](=O)[O-])o1	ETA-R	-	-	MIC	-	-	12.5 µg/mL
N/C(=N/O)c1cncc(-n2cncn2)n1	Isoniazid-resistant	-	-	MIC	-	-	500 µg/mL
CN1C(=O)C=C(N)C1=O	H37Rv	12.8 µg/mL	-	inhibition	BACTEC	-	12%
CC(=O)Oc1ccccc1C(=O)Nc1ncc([N+](=O)[O-])s1	T spoligotype 5	-	-	MIC	visual reading	-	24 µg/mL
CC1CCCCN1c1cncc(C(=O)NN)n1	Capreomycin-resistant	-	-	MIC	-	-	125 µg/mL
CCCCCCCCS(=O)(=O)CC(N)=O	10129-3	-	-	MIC	-	-	≤12.5 µg/mL
NC(=S)c1cncc(-n2ccnc2)n1	Capreomycin-resistant	-	-	MIC	-	-	500 µg/mL
O=C(O)c1cccc2nc3ccccc3nc12	H37Rv	-	VERO	MIC	BACTEC	-	12.5 µg/mL
CC1CN(c2c(F)cc3c(=O)c(C(=O)O)cn(C4CC4)c3c2F)CCN1	CSU26	-	-	MIC	-	-	0.25 µg/mL
NNC(=O)c1ccncc1	ATCC 27294	-	-	MIC50	-	-	0.2 µM
Cc1c(N=Nc2c(S(=O)(=O)[O-])cc3cc(S(=O)(=O)[O-])c(N=Nc4c(C)n(C)n(-c5ccccc5)c4=O)c(O)c3c2O)c(=O)n(-c2ccccc2)n1C.[Na+].[Na+]	H37Rv	-	-	MIC bound	BACTEC	-	>12.8 µg/mL
CCCCn1c(-c2cc3ccccc3oc2=O)cs/c1=N\N=C\c1cc(Br)ccc1O	H37Rv	-	-	MIC	-	-	>12.5 µg/mL
NNC(=O)CC1=NNC(=O)C1	H37Rv	-	-	MIC	BACTEC	-	≥12.5 µg/mL
O=c1oc2ccccc2cc1-c1cs/c(=N\N=C\c2cc(Br)ccc2O)n1-c1ccccc1	H37Rv	-	-	EC50	-	-	>12.5 µg/mL
CO[C@H]1/C=C/O[C@@]2(C)Oc3c(C)c(O)c4c(O)c(c(/C=N/N5CCN(C/C=C/c6ccccc6)CC5)c(O)c4c3C2=O)NC(=O)/C(C)=C\C=C\[C@H](C)[C@H](O)[C@@H](C)[C@@H](O)[C@@H](C)[C@H](OC(C)=O)[C@@H]1C	MTB14	-	-	MBC	-	-	0.25 µg/mL
C=C(C)C1CC=C(C)/C(=N/NC(=O)c2cccnc2)C1	EMB-R	-	-	MIC	-	-	0.4 µg/mL
CCCCn1c(-c2cc3ccccc3oc2=O)cs/c1=N\N=C\c1ccc(Cl)cc1	H37Rv	-	-	MIC	-	-	>12.5 µg/mL
CC1CN(c2cncc(C(N)=S)n2)CC(C)O1	Capreomycin-resistant	-	-	MIC	-	-	62.5 µg/mL
NC(N)=N/C(N)=N/c1nn[nH]n1	H37Rv	-	-	MIC bound	resazurin	-	>6.25 µg/mL
Cc1c(N2CC3CCCNC3C2)c(F)cc2c(=O)c(C(=O)O)cn([C@@H]3C[C@@H]3F)c12	44 (RFP-resistant)	-	-	MIC	-	-	0.006 µg/mL
Cc1c(Sc2ccccc2)[n+](=O)c2ccc(C(F)(F)F)cc2n1[O-]	H37Rv	6.25 µg/mL	-	inhibition	-	-	100%
NC(=S)c1cncc(-n2cncn2)n1	H37Rv	-	-	MIC	-	-	250 µg/mL
O=C1CSC(c2cccc(Br)c2)N1C(=O)NCCCN1c2ccccc2Sc2ccccc21	H37Rv	50 µg/mL	-	inhibition	agar	-	70%
C/C=C/C1(/C=C/C)C(=O)OC(=O)C1(/C=C/C)/C=C/C	H37Rv	-	-	MIC bound	BACTEC	-	>12.5 µg/mL
NC(=O)c1cncc(-n2cncn2)n1	SP 607	-	-	MIC	-	-	2000 µg/mL
C[C@H](NCCNC(c1ccccc1)c1ccccc1)C1CCCCC1	-	-	-	MIC	-	-	50 µM
CC(=O)OC[C@]12CCC(C)=C[C@H]1O[C@@H]1[C@H](O)[C@@H](OC(C)=O)[C@@]2(C)[C@@]12CO2	H37Rv	-	-	MIC bound	resazurin	-	>6.25 µg/mL
CCCCC(CC)CN1CN(CC(CC)CCCC)CC(C)(NCCNCC2(O)CCCCC2)C1	-	-	-	MIC	-	-	6.25 µM
C[N+](C)(C)[C@@H](Cc1c[nH]c(=S)[nH]1)C(=O)[O-]	H37Rv	-	-	MIC	BACTEC	-	≥128 µg/mL
C=C(C)/C=C/[C@]12C[C@H](C)[C@H]3CC[C@](C)(NC)[C@@H](CC[C@H]1C)[C@@H]32	H37Rv	64 µg/mL	-	inhibition	-	-	100%
COc1ccc2c(c1)OC/C(=C\c1ccc([N+](=O)[O-])o1)C2=O	H37Rv	-	-	MIC	BACTEC	-	≥12.5 µg/mL
CC1CCCCN1c1cncc(C(=O)NO)n1	Ethionamide-resistant	-	-	MIC	-	-	122 µg/mL

The last 7 rows once more:

structure,strain or isolate,dose,cells,measure,method,conditions,result
C[C@H](NCCNC(c1ccccc1)c1ccccc1)C1CCCCC1,-,-,-,MIC,-,-,50 µM
CC(=O)OC[C@]12CCC(C)=C[C@H]1O[C@@H]1[C@H](O)[C@@H](OC(C)=O)[C@@]2(C)[C@@]12CO2,H37Rv,-,-,MIC bound,resazurin,-,>6.25 µg/mL
CCCCC(CC)CN1CN(CC(CC)CCCC)CC(C)(NCCNCC2(O)CCCCC2)C1,-,-,-,MIC,-,-,6.25 µM
C[N+](C)(C)[C@@H](Cc1c[nH]c(=S)[nH]1)C(=O)[O-],H37Rv,-,-,MIC,BACTEC,-,≥128 µg/mL
C=C(C)/C=C/[C@]12C[C@H](C)[C@H]3CC[C@](C)(NC)[C@@H](CC[C@H]1C)[C@@H]32,H37Rv,64 µg/mL,-,inhibition,-,-,100%
COc1ccc2c(c1)OC/C(=C\c1ccc([N+](=O)[O-])o1)C2=O,H37Rv,-,-,MIC,BACTEC,-,≥12.5 µg/mL
CC1CCCCN1c1cncc(C(=O)NO)n1,Ethionamide-resistant,-,-,MIC,-,-,122 µg/mL